Pooled drug test results. Numbers come from NIAID ChemDB, via PubChem.

Shared fields: growth or infection tests; species: Vesicular stomatitis virus; measure: EC50

An empty or dashed field is not shown.

SMILES,cell line,method,value
Nc1ncnc2c1ncn2[C@H]1C[C@H](O)[C@@H](CO)O1,PRK,cytopathic effect,>200 µg/mL
CCc1nc(-n2c(-c3ccccc3)nc3ccc(Br)cc3c2=O)nc(N)c1-c1ccc(Cl)cc1,HeLa,cytopathic effect,>16 µg/mL
Nc1nc2c(nc(Cl)n2COCCO)c(=O)[nH]1,PRK,cytopathic effect,>400 µg/mL
Nc1nc(F)nc2c1ncn2[C@@H]1C=C(CO)[C@@H](O)[C@H]1O,E6SM,cytopathic effect,1 µg/mL
CCCCc1cn([C@@H]2OC3COP(=O)(O)OC3[C@H]2O)c(=O)nc1N,-,-,>400 µg/mL
Cc1cn([C@H]2OC[C@@H](CO)C2F)c(=O)[nH]c1=O,HeLa,cytopathic effect,>80 µg/mL
[N-]=[N+]=N[C@H]1[C@@H](O)[C@H](n2cnc3c(N)ncnc32)O[C@@H]1CO,PRK,cytopathic effect,≥40 µg/mL
Nc1nc(-n2c(-c3ccccc3)nc3ccc(Br)cc3c2=O)nnc1-c1cccc(Cl)c1Cl,E6SM,cytopathic effect,>80 µg/mL
CN(C)c1ncnc2c1ncn2COCCO,PRK,cytopathic effect,>400 µg/mL
Cc1cn([C@@H]2OC[C@H](CO)[C@H]2O)c(=O)[nH]c1=O,E6SM,cytopathic effect,>400 µg/mL
Nc1ncnc2c1ncn2[C@@H]1O[C@H](CO)[C@@H](O)[C@@H]1O,PRK,cytopathic effect,30 µg/mL
Nc1ncnc2c1ncn2[C@@H]1O[C@H](CO)[C@@H](O)[C@@H]1O,PRK,cytopathic effect,30 µg/mL
CCCCc1cn([C@@H]2O[C@H](COP(=O)(O)O)[C@@H](O)[C@H]2O)c(=O)nc1N,-,-,>400 µg/mL
Nc1ncnc2c1ncn2[C@H]1OC[C@@H](CO)C1O,HeLa,cytopathic effect,>80 µg/mL
O=c1[nH]c(=O)n(COCCO)cc1I,PRK,cytopathic effect,>400 µg/mL
CC(C)c1cn([C@@H]2OC3COP(=O)(O)OC3[C@H]2O)c(=O)nc1N,-,-,>400 µg/mL
OC[C@H]1O[C@@H](c2cc(/C=C/I)c(F)cc2F)C[C@@H]1O,E6SM,cytopathic effect,>400 µg/mL
O=c1[nH]cnc2c1ncn2COCCO,PRK,cytopathic effect,>400 µg/mL
CC(C)c1cn([C@@H]2O[C@H](COP(=O)(O)O)[C@@H](O)[C@H]2O)c(=O)nc1N,-,-,>400 µg/mL
O=c1[nH]c(=O)n(COCCO)cc1/C=C/Br,PRK,cytopathic effect,>400 µg/mL
COc1cc(Cc2cnc(-n3c(C)nc4ccc(Br)cc4c3=O)nc2N)cc(OC)c1OC,HeLa,cytopathic effect,>80 µg/mL
Nc1nc2c(ncn2[C@H]2C[C@H](O)[C@@H](CO)O2)c(=O)[nH]1,PRK,cytopathic effect,>200 µg/mL
C=Cc1cc([C@H]2C[C@H](O)[C@@H](CO)O2)c(F)cc1F,E6SM,cytopathic effect,>400 µg/mL
[N-]=[N+]=N[C@H]1[C@H](O)[C@@H](CO)O[C@H]1n1cnc2c(N)ncnc21,PRK,cytopathic effect,>200 µg/mL
CCCCCCCCc1cn([C@@H]2O[C@H](COP(=O)(O)O)[C@@H](O)[C@H]2O)c(=O)nc1N,-,-,>400 µg/mL
[N-]=[N+]=NC(CBr)c1cc([C@H]2C[C@H](O)[C@@H](CO)O2)c(F)cc1F,E6SM,cytopathic effect,>400 µg/mL
O=c1cc(O)ccn1COCCO,PRK,cytopathic effect,>400 µg/mL
COC[C@H]1O[C@@H](n2cnc3c(N)ncnc32)[C@H](O)[C@@H]1O,PRK,cytopathic effect,>100 µg/mL

Lines come from different laboratories, so protocols vary. ECn: concentration that inhibits the pathogen or its effect by n%.